Compound potency records, mixed from different reports. Data source: NIAID ChemDB in PubChem.

All rows: whole-cell or culture tests; agent: Cryptococcus neoformans; endpoint: MIC

Blank or dashed fields: not listed here. Rows are shuffled and stem from different studies.

smiles | strain or isolate | method | value
C[C@@H](n1cnc2cc(Cl)ccc2c1=O)[C@](O)(Cn1cncn1)c1ccc(F)cc1F | Isolate 123.96 |  | 0.0024 µg/mL
CC(=O)OCC1=C(C(=O)O)N2C(=O)C(NC(=O)CSC(=O)N3CCCC3)C2SC1 |  |  | >250 µg/mL
COc1ccc(C2C(C#N)=C(N)OC3=C2CSc2ccccc23)cc1OC | 93/V |  | 25 µg/mL
COc1ccc2c(c1)C(=O)/C(=C/c1ccc3c(c1)CC3)CO2 | Farwania |  | 12.5 µg/mL
CC1CC(=O)N(CCCc2ccccc2)C1=O | ATCC 32264 | broth dilution / turbidity | 125 µg/mL
CC(C)=CCc1cc(O)c(O)c(CC=C(C)C)c1-c1oc2c(CC=C(C)C)c(O)cc(O)c2c(=O)c1O | ATCC 32264 |  | >100 µg/mL
Oc1ccccc1C=Nc1ccccc1O | 27JF | broth dilution | 11.3 µg/mL
N#CC1=C(c2ccccc2)C2=C(NC1O)c1ccccc1SC2 | Farwania |  | 12.5 µg/mL
CN[C@@H]1[C@H](O[C@@H]2O[C@H](CO)[C@@H](O)[C@H](S(=O)(=O)O)[C@H]2O)[C@@H](O)[C@H](O[C@H]2c3cc(C)c(C(=O)N[C@H](CO)C(=O)O)c(O)c3-c3c(cc4c(c3O)C(=O)c3cc(OC)cc(O)c3C4=O)[C@@H]2O)O[C@@H]1C | D49 |  | 6.3 µg/mL
Oc1ccccc1N=Cc1ccc(F)cc1 | F-10 | broth dilution | 8 µg/mL
C[C@@H](c1ncncc1F)[C@](O)(Cn1cncn1)c1ccc(F)cc1F | ATCC90112 | broth dilution | 0.125 µg/mL
CN[C@@H]1[C@H](O[C@@H]2OC[C@@H](O)[C@H](O)[C@H]2O)[C@@H](O)[C@H](O[C@H]2c3c(N)c(C)c(C(=O)N[C@H](C)C(=O)O)c(O)c3-c3c(cc4c(c3O)C(=O)c3cc(OC)cc(O)c3C4=O)[C@@H]2O)O[C@@H]1C | IAM 4514 |  | >100 µg/mL
COc1ccccc1/C=C1\CSc2ccccc2C1=O | 25 |  | 25 µg/mL
OCC1c2ccccc2SC1c1ccc2c(c1)OCO2 | 93/V |  | 25 µg/mL
Cc1ccccc1N1C(=O)CC(C)C1=O | ATCC 32264 | broth dilution / turbidity | 125 µg/mL
COc1cccc(-c2sc3ccccc3c2CO)c1O | 93/V |  | >100 µg/mL
OC(Cn1cncn1)(Cn1cncn1)c1ccc(F)cc1F | ATCC 90113 |  | 0.125 µg/mL
CCN1CCS/C1=C(/C#N)n1ccnc1 |  |  | >100 µg/mL
COc1nc2c(c(-c3ccccc3)c1C#N)CSc1ccccc1-2 | Farwania |  | 6 µg/mL
CCN1/C(=C(\C#N)n2ccnc2)SCC1C |  |  | >100 µg/mL
Oc1ccccc1N=Cc1ccccc1 | 27JF | broth dilution | 5.7 µg/mL
N#CC1=C(N)OC2=C(CSc3ccccc32)C1c1ccc2c(c1)OCO2 | 25 |  | 12.5 µg/mL
C[C@@H]1C(=O)N(CCCCc2ccccc2)C(=O)[C@@H]1C | ATCC 32264 | broth dilution / turbidity | 31.3 µg/mL
COc1ccc2c(c1)C(=O)/C(=C/c1ccc3c(c1)OCO3)CS2 | Farwania |  | 25 µg/mL
COc1cc(CC=C(C)C)c([C@H]2Oc3c(CC=C(C)C)c(OC)cc(O)c3C(=O)[C@@H]2O)c(CC=C(C)C)c1O | ATCC 32264 |  | >100 µg/mL
CCOC(=O)/C(=C1/SCCC(C)S1)n1ccnc1 |  |  | >100 µg/mL
Cc1ccc2c(n1)sc1c(Cl)nnnc12 |  |  | 50 µg/mL
COc1ccc(-c2c(C#N)c(OC)nc3c2CSc2ccc(Cl)cc2-3)cc1O | 25 |  | 12.5 µg/mL
CCCCCCCCCCCCCC[C@@H]1CCCN1C | IP960-67 |  | 6.25 µg/mL
CC(C)=C[C@H]1C[C@](C)(O)C2C3CCC4[C@@]5(C)CCC[C@](C)(O[C@H]6OC[C@H](O)[C@H](OC7O[C@H](CO)[C@@H](O)[C@H](O)[C@H]7OC(=O)/C=C/c7ccc(O)cc7)[C@H]6O[C@H]6C[C@H](CO)[C@@H](O)[C@@H]6O)C5CC[C@@]4(C)[C@@]34CO[C@@]2(C4)O1 |  |  | 50 µg/mL
CCCOc1nc2c(c(-c3ccc4c(c3)OCO4)c1C#N)CSc1ccc(Cl)cc1-2 | 93/V |  | 50 µg/mL
CC[C@H]1/C=C(\C)[C@H](O)[C@H](C)C[C@H](OC)[C@H]2O[C@@](O)(C(=O)C(=O)N3CCCC[C@H]3C(=O)O[C@H](/C(C)=C/[C@@H]3CC[C@@H](O)[C@H](OC)C3)[C@H](C)[C@@H](O)CC1=O)[C@H](C)C[C@@H]2OC | C20 |  | 12.5 µg/mL
CCOc1nc2c(c(-c3ccc4ccccc4c3)c1C#N)CSc1ccc(Cl)cc1-2 | 93/V |  | 50 µg/mL
CN(C)c1ccc(C2Sc3ccccc3C2CO)cc1 | Isolate 25 |  | 6 µg/mL
CC1CCS/C(=C(/C#N)n2ccnc2)S1 |  |  | >100 µg/mL
Oc1ccccc1N=Cc1ccc(O)c(O)c1O | ATCC 24067 | broth dilution | 11.3 µg/mL
CCN(CC)C(=O)SCC(=O)NC1C(=O)N2C(C(=O)O)=C(COC(C)=O)CSC12 |  |  | 63 µg/mL
Oc1ccccc1N=Cc1cccc(O)c1O | GM | broth dilution | 3.6 µg/mL
COc1ccc(N2C(=O)C[C@@H](C)C2=O)cc1 | ATCC 32264 | broth dilution / turbidity | 62.5 µg/mL
CN[C@@H]1[C@H](O[C@@H]2OC[C@@H](O)[C@H](O)[C@H]2O)[C@@H](O)[C@H](O[C@H]2c3cc(C)c(C(=O)N[C@H](C)C(=O)O)c(O)c3-c3c(cc4c(c3O)C(=O)c3cc(OC)c(I)c(O)c3C4=O)[C@@H]2O)O[C@@H]1C | IAM 4514 |  | >100 µg/mL
COc1ccccc1-c1c(C#N)c(OC)nc2c1CSc1ccc(Cl)cc1-2 | 25 |  | 6 µg/mL
Cc1cc2c(c(O)c1C(=O)NCC(=O)O)-c1c(cc3c(c1O)C(=O)c1cc(OCC(N)=O)cc(O)c1C3=O)[C@H](O)[C@H]2O[C@@H]1O[C@H](C)[C@H](O)[C@H](O[C@@H]2OC[C@@H](O)[C@H](O)[C@H]2O)[C@H]1O | IAM 4514 |  | >100 µg/mL
Cc1cc(C)c2c(n1)sc1c(Cl)nnnc12 |  |  | 100 µg/mL
C[C@@H](c1ncncc1F)[C@](O)(Cn1cncn1)c1ccc(F)cc1F | Clinical isolate (IM 972751) | broth dilution | <0.015 µg/mL
COc1nc2c(c(-c3ccc(C)cc3)c1C#N)CSc1ccccc1-2 | 25 |  | 1.5 µg/mL
CC(=O)OCC1=C(C(=O)O)N2C(=O)C(NC(=O)CSC(=S)N(C)c3ccccc3)C2SC1 |  |  | >250 µg/mL
COc1ccc(/C=C2\COc3ccc(OC)cc3C2=O)cc1 | 25 |  | 6 µg/mL
CNC1C(C)OC(O[C@H]2c3cc(C)c(C(=O)NC(C)C(=O)O)c(OC)c3-c3c(cc4c(c3O)C(=O)c3cc(OC)cc(OC)c3C4=O)[C@@H]2O)C(O)C1OC1OCC(O)C(O)C1O | IAM 4514 |  | >100 µg/mL
C[C@@H]1CC(=O)N(CCCc2ccccc2)C1=O | ATCC 32264 | broth dilution / turbidity | 62.5 µg/mL
COc1ccc(O)c(C2Sc3ccccc3C2CO)c1 | Farwania |  | 12.5 µg/mL
C[C@@H]1CC(=O)N(c2ccccc2)C1=O | ATCC 32264 | broth dilution / turbidity | 62.5 µg/mL
C[C@H]1[C@H](O)[C@@H](C)/C=C/C=C/C=C/C=C/C=C/C=C/C=C/[C@H](O[C@@H]2O[C@H](C)[C@@H](O)[C@H](N)[C@@H]2O)C[C@@H]2O[C@](O)(C[C@@H](O)C[C@@H](O)CC[C@H](O)[C@@H](O)C[C@@H](O)CC(=O)O[C@H]1C)C[C@H](O)[C@H]2C(=O)O | 2867E |  | 0.13 µg/mL
CC(=O)OCC1=C(C(=O)O)N2C(=O)C(NC(=O)CSC(=S)N3CCOCC3)C2SC1 |  |  | 63 µg/mL